For at least one entry, the source does not settle the construct or the ends of the probe.
System: AvaI restriction endonuclease
Assay: enzyme reaction in vitro
Conditions: 5'-FAM, ROX at T11; alpha-thio dCTP incorporated in the complementary strand; SDA with 100 and 1000 targets; 6 mM MgOAc, 40 mM K phosphate pH 7.5, 53-54 C, Bst polymerase present; purified native protein; protein details: New England BioLabs; label: FAM/ROX

With “TAGCCTCGAGTAGAGTCTTCAAATATCAGAGCTTTACCTAACAA (double strand)” the “activity on this sequence” value was “active”.
